Data: patent publication US7501399B2, “Immunoeffector compounds” (Corixa Corporation, priority 2000, dated 2009)

Tested on: transfected P815S cells expressing the L^d-restricted epitope
Experiment: CTL activity of spleen cells from HBsAg immunized mice, four hour 51Cr-release assay (Example 5)

Question: What does the source list for “N—[(R)-3-Tetradecanoyloxytetradecanoyl]-(S)-2-pyrrolidinomethyl 2-Deoxy-4-O-phosphono-2-[(R)-3-tetradecanoyloxytetradecanoylamino]-3-O—[(R)-3-tetradecanoyloxytetradecanoyl]-β-D-glucopyranoside Triethylammonium Salt [RC-553]”?
Answer: Percent Specific Killing (Effector:Target Ratio) 6.25:1 (E:T 6.25:1, spleen cells 9 days post-vaccination, four day peptide incubation): 37%; Percent Specific Killing (Effector:Target Ratio) 12.5:1 (E:T 12.5:1, spleen cells 9 days post-vaccination, four day peptide incubation): 53%; Percent Specific Killing (Effector:Target Ratio) 25.1 (E:T 25.1 as printed, spleen cells 9 days post-vaccination, four day peptide incubation): 77%; Percent Specific Killing (Effector:Target Ratio) 50:1 (E:T 50:1, spleen cells 9 days post-vaccination, four day peptide incubation): 85%; CTL activity versus antigen only controls (Example 5, text): significantly elevated levels of CTL activity compared to the antigen only controls
